Laboratory results published in paper PMC8971458, “Assembly mechanism of the pleomorphic immature poxvirus scaffold” (2022).

Tested on: D13 N-terminal truncation mutant D13(18-548), Vaccinia virus, Western Reserve strain, P68440 18-548
Assay: negative-stain transmission electron microscopy

## D13 N-terminal truncation mutant D13(18-548)
  stoichiometry N: 3
